Data on three substances can be found in article PMC11857287, “Investigation of the Structure and Functional Activity of the YqeK Protein in Streptococcus pyogenes with High Efficiency in Hydrolyzing Ap4A” (Microorganisms, 2025).

The subject of the data set is Nc1ncnc2c1ncn2[C@@H]1O[C@H](COP(=O)(O)OP(=O)(O)OP(=O)(O)OP(=O)(O)OC[C@H]2O[C@@H](n3cnc4c(N)ncnc43)[C@H](O)[C@@H]2O)[C@@H](O)[C@H]1O. Briefly: purified protein. The conditions noted are these: Mg2+-dependent, heading states optimal conditions (optimum pH 7.0, 45 °C), 0.1 mg/mL enzyme.
By Km is commonly meant the substrate concentration at which the rate is half of its maximum. Turning to Sp-yqeK (Streptococcus pyogenes; F180A), the Michaelis constant (Km) is 1987 ± 651.3617 µM.
Turning to Sp-yqeK (Streptococcus pyogenes; T183A), the Km is 1023.7566 ± 328.1 µM.
For Sp-yqeK (Streptococcus pyogenes; L172A) the value was 1009 ± 346.4237 µM.
